A mixed list of measured activities; the numbers were collected in NIAID ChemDB.

All rows: growth or infection tests; agent: Candida albicans

MIC50, MIC90 and the like: level of inhibition, or share of isolates inhibited.

compound,dose,setting,method,endpoint,strain,result
COc1ccc(C(Cc2ccc(Cl)cc2)n2ccnc2)cc1,-,-,-,Geometric mean MIC,34 strains,14.62 µg/mL
Clc1cccc(Cl)c1COc1ccc(C(c2cccc3ccccc23)n2ccnc2)cc1.O=[N+]([O-])O,-,-,-,MIC90,17 strains,≥256 µg/mL
NCCCC[C@H](NC(=O)[C@H](CCCN=C(N)N)NC(=O)[C@H](CCCN=C(N)N)NC(=O)[C@H](CCCCN)NC(=O)[C@H](CCCCN)NC(=O)[C@@H](N)CCCCN)C(=O)N[C@@H](CCCN=C(N)N)C(=O)O,25 µM,-,-,inhibition,ATCC 10231,0%
CC(C)(O)c1cn(-c2cccc3ccccc23)nn1,2048 µg/mL,-,broth dilution,inhibition,URM 4125,0%
COc1ccc(C(Cc2cccc([N+](=O)[O-])c2)n2ccnc2)cc1,-,-,-,Geometric mean MIC,34 strains,>256 µg/mL
Clc1ccc(CNc2cccc(Cn3ccnc3)c2)cc1,-,-,-,Mean MIC,27 strains,41.83 µg/mL
COc1ccc(C(Cc2ccccc2N)n2ccnc2)cc1,-,-,-,Geometric mean MIC,34 strains,55.23 µg/mL
CC(C)(O)c1cn(-c2ccc([N+](=O)[O-])cc2)nn1,2048 µg/mL,-,broth dilution,inhibition,URM 4819,0%
C=CCc1ccc(O)c(OC)c1,-,-,turbidity,MIC90,2779,485 µg/mL
Clc1ccccc1COc1ccc(C(c2nccc3ccccc23)n2ccnc2)cc1.O=[N+]([O-])O,-,-,-,Mean MIC,17 strains,≥256 µg/mL
CCCCCOc1ccc(-c2cc(-c3ccc(C(=O)N[C@H]4C[C@@H](O)[C@@H](O)NC(=O)[C@@H]5[C@@H](O)[C@@H](C)CN5C(=O)[C@H]([C@H](O)CC(N)=O)NC(=O)[C@H]([C@H](O)[C@@H](O)c5ccc(O)c(OS(=O)(=O)O)c5)NC(=O)[C@@H]5C[C@@H](O)CN5C(=O)[C@H]([C@@H](C)O)NC4=O)cc3)no2)cc1,-,-,-,MFC50,Fluconazole-resistant 4 isolates pooled,0.0313 µg/mL
CC(=O)OC[C@H]1O[C@@H](O[C@@H]2[C@@H](N=[N+]=[N-])[C@H](O)[C@H](O)[C@H]3OC(C)(C)O[C@H]32)[C@H](OC(C)=O)[C@@H](OC(C)=O)[C@H]1OC(C)=O,15.6 µg/mL,-,broth dilution / turbidity,inhibition,ATCC 10231,13.24%
Oc1ccc2c(c1)CCc1ccc(cc1)Oc1cc(ccc1O)CCc1cccc(O)c1-2,-,-,broth dilution,MIC80,BWP17-DPP3-GFP,16 µg/mL
Fc1ccccc1C(c1nccc2ccccc12)n1ccnc1,-,-,-,Mean MIC,44 strains,193 µg/mL
C[C@@H](c1ncncc1F)[C@](O)(Cn1cncn1)c1ccc(F)cc1F,-,pH 6,broth dilution,EC90,15 isolates,0.03 µg/mL
C[C@@H](N1CCN(Cc2cn(-c3ccc(F)cc3)c3ccccc23)CC1)[C@](O)(Cn1cncn1)c1ccc(F)cc1F,-,-,resazurin,MIC80,ATCC 36082,0.125 µg/mL
Cc1nn(-c2ccccc2)c2nc3nc4c(c(N)c3c(-c3ccc(Cl)cc3)c12)CCCCC4,-,-,broth dilution / absorbance,MIC50,ATCC 10231,125 µg/mL
OC(CN1CCN(c2ccc(OCc3ccncc3)cc2)CC1)(Cn1cncn1)c1ccc(F)cc1F,-,-,-,MIC80,ATCC64550,≤0.031 µg/mL
C[C@@H](N1CCN(Cc2cn(Cc3ccc(F)cc3F)c3c(Cl)cccc23)CC1)[C@](O)(Cn1cncn1)c1ccc(F)cc1F,-,-,resazurin,MIC80,ATCC MYA-1003,2 µg/mL
CC[C@@H]([C@H](C)O)n1ncn(-c2ccc(N3CCN(c4ccc(OC[C@@H]5CO[C@@](Cn6cncn6)(c6ccc(F)cc6F)C5)cc4)CC3)cc2)c1=O,-,pH 6,broth dilution,EC90,10 isolates,0.06 µg/mL
Cc1ccc(-c2c3c(N)c4c(nc3nc3c2c(C)nn3-c2ccccc2)CCCC4)cc1,-,-,broth dilution / absorbance,MIC100,CCC 126,31.2 µg/mL
c1csc(C(c2nccc3ccccc23)n2ccnc2)c1,-,-,-,Mean MIC,44 strains,99.3 µg/mL
Cc1ccc(-n2cc(C(C)(C)O)nn2)cc1C,2048 µg/mL,-,broth dilution,inhibition,URM 4125,0%
Fc1ccc(COc2ccc(C(c3cccc4ccccc34)n3ccnc3)cc2)cc1.O=[N+]([O-])O,-,-,-,Mean MIC,17 strains,≥256 µg/mL
Cc1ccc(C(C)C)c(O)c1,-,-,-,MLC,H37,0.32 µg/mL
CC(=O)N1CCN(c2ccc(OC[C@H]3CO[C@](Cn4ccnc4)(c4ccc(Cl)cc4Cl)O3)cc2)CC1,-,pH 5,broth dilution,EC90,10 isolates,0.5 µg/mL
Cc1ccc(-c2c3c(N)c4c(nc3nc3c2c(C)nn3-c2ccccc2)CCC4)cc1,-,-,broth dilution / absorbance,MIC100,CCC 128,125 µg/mL
Clc1cccc(Cl)c1COc1ccc(C(c2nccc3ccccc23)n2ccnc2)cc1,-,-,-,Mean MIC,16 strains,≥256 µg/mL
C=CCc1ccc(Cn2cc(CN3CCN([C@H](C)[C@](O)(Cn4cncn4)c4ccc(F)cc4F)CC3)c3cccc(F)c32)cc1,-,-,resazurin,MIC80,ATCC 36082,4 µg/mL
COc1ccc(-c2c3c(N)c4c(nc3nc3c2c(C)nn3-c2ccccc2)CCC4)cc1,-,-,broth dilution / absorbance,MIC80,ATCC 10231,250 µg/mL
C[C@@H](N1CCN(Cc2cn(Cc3ccc(Cl)cc3)c3c(F)cccc23)CC1)[C@](O)(Cn1cncn1)c1ccc(F)cc1F,-,-,resazurin,MIC80,ATCC 36082,0.125 µg/mL
CC(C)(O)c1cn(-c2ccc3ccccc3c2)nn1,2048 µg/mL,-,broth dilution,inhibition,URM 4386,0%
COc1cc(C(=O)Nc2cccc(Cn3ccnc3)c2)cc(OC)c1OC,-,-,-,Mean MIC,27 strains,133 µg/mL
N=C(N)c1ccc2nc(-c3ccc(-c4nc5ccc(C(=N)N)cc5[nH]4)[nH]3)[nH]c2c1,-,-,-,MFC,Isolate 17 (strain 12-99),0.78 µg/mL
Nc1[nH]c(=O)ncc1F,-,pH 5,broth dilution,EC90,10 isolates,2 µg/mL
CN(C)c1ccc(C=Nc2cccc(Cn3ccnc3)c2)cc1,-,-,-,Mean MIC,27 strains,140 µg/mL
Cc1ccc(-c2c3c(N)c4c(nc3nc3c2c(C)nn3-c2ccccc2)CCCCC4)cc1,-,-,broth dilution / absorbance,MIC100,ATCC 10231,125 µg/mL
O=C(Nc1cccc(Cn2ccnc2)c1)c1ccc(Cl)cc1[N+](=O)[O-],-,-,-,Mean MIC,27 strains,117 µg/mL
COc1ccc(C(Cc2cccc(F)c2)n2ccnc2)cc1,-,-,-,Geometric mean MIC,34 strains,140.9 µg/mL
C=CCSS(=O)CC=C,-,-,broth dilution,MIC90,Clinical Isolate 3064,3.13 µg/mL

Neighbouring rows are from separate reports. Inhibition is in % at the dose shown (toxicity tests: loss of growth or viability). ECn is the concentration giving n% inhibition of infection, replication or growth. Blank or dashed fields: not listed here.